Source: paper PMC7114128 (Antiviral Research, 2009)

Test system: HepG2 cells

Substance: Isoeugenol
- CC50: 3.9 ± 0.343 mM
